Results reported in publication PMC12037509.

Tested on: C[C@@H]1O[C@@H]1P(=O)(O)O
Assay: purified protein
Details: co-substrate GSH (10 mM stock, 10 μL in 100 μL mix), MnCl2, KCl, Tris-HCl, 37 °C, 5 min

Substance: FosC3 (Aeromonas caviae; Q3H)
- Km: 70.99 ± 4.31 µM
